# According to publication PMC10889057:
# Legend:
# [1] = target: HIV-1 Env of isolate 246F3 (on pseudovirus) (HIV-1)
# [2] = target: HIV-1 Env of isolate 25710 (on pseudovirus) (HIV-1)
# [3] = target: HIV-1 Env of isolate 398F1 (on pseudovirus) (HIV-1)
# [4] = target: HIV-1 Env of isolate BJOX2000 (on pseudovirus) (HIV-1)
# [5] = target: HIV-1 Env of isolate CE0217 (on pseudovirus) (HIV-1)
# [6] = target: HIV-1 Env of isolate CE1176 (on pseudovirus) (HIV-1)
# [7] = target: HIV-1 Env of isolate CH119 (on pseudovirus) (HIV-1)
# [8] = target: HIV-1 Env of isolate CNE55 (on pseudovirus) (HIV-1)
# [9] = target: HIV-1 Env of isolate CNE8 (on pseudovirus) (HIV-1)
# [10] = target: HIV-1 Env of isolate TRO11 (on pseudovirus) (HIV-1)
# [11] = target: HIV-1 Env of isolate X1632 (on pseudovirus) (HIV-1)
# [12] = target: HIV-1 Env of isolate X2278 (on pseudovirus) (HIV-1)
substance,measurement,setting,value
WT CD4-Ig (from UniProt P01730 26-388) (Fc fusion),"IC50, neutralization of 246F3 HIV-1 pseudovirus in TZM-bl cells",[1],25.2 µg/mL
same,"IC50, neutralization of 25710 HIV-1 pseudovirus in TZM-bl cells",[2],0.643 µg/mL
same,"IC50, neutralization of 398F1 HIV-1 pseudovirus in TZM-bl cells",[3],9.43 µg/mL
same,"IC50, neutralization of BJOX2000 HIV-1 pseudovirus in TZM-bl cells",[4],10.1 µg/mL
same,"IC50, neutralization of CE0217 HIV-1 pseudovirus in TZM-bl cells",[5],13.6 µg/mL
same,"IC50, neutralization of CE1176 HIV-1 pseudovirus in TZM-bl cells",[6],9.66 µg/mL
same,"IC50, neutralization of CH119 HIV-1 pseudovirus in TZM-bl cells",[7],30.2 µg/mL
same,"IC50, neutralization of CNE55 HIV-1 pseudovirus in TZM-bl cells",[8],30 µg/mL
same,"IC50, neutralization of CNE8 HIV-1 pseudovirus in TZM-bl cells",[9],> 50 µg/mL
same,"IC50, neutralization of TRO11 HIV-1 pseudovirus in TZM-bl cells",[10],> 50 µg/mL
same,"IC50, neutralization of X1632 HIV-1 pseudovirus in TZM-bl cells",[11],2.59 µg/mL
same,"IC50, neutralization of X2278 HIV-1 pseudovirus in TZM-bl cells",[12],19.6 µg/mL
